Columns and labels:
[1] = target: neuraminidase (N1) of influenza A virus A/Alabama/03/2020, NA: H275 (H1N1) (influenza A virus A/Alabama/03/2020 (H1N1))
[2] = target: neuraminidase (N1) of influenza A virus A/California/2009 (H1N1) (influenza A virus A/California/2009 (H1N1))
[3] = target: neuraminidase (N1) of influenza A virus A/Indiana/02/2020 (H1N1) (influenza A virus A/Indiana/02/2020 (H1N1))
[4] = target: neuraminidase (N2) of influenza A virus A/HongKong/1968 (H3N2) (influenza A virus A/Hong Kong/1/1968 (H3N2)) (UniProt Q91MA2)
[5] = target: neuraminidase (N2) of influenza A virus A/Singapore/INFIMH-16-0019/2016 (H3N2) (influenza A virus A/Singapore/INFIMH-16-0019/2016 (H3N2))
[6] = target: neuraminidase of influenza B virus B/Laos/0654/2016, NA: 134N (Victoria) (influenza B virus B/Laos/0654/2016 (Victoria))
[7] = target: Recombinant neuraminidase from B/Massachusetts/02/2012 (Yamagata) (influenza B virus B/Massachusetts/02/2012); experiment: cryo-EM structure

Substance | In vitro neutralization IC50; […] mAb as IgG [1] [µg/mL] | In vitro neutralization IC50; virus A/California/2009 (H1N1); mAb as IgG [2] [µg/mL] | In vitro neutralization IC50; virus A/Indiana/02/2020 (H1N1); mAb as IgG [3] [µg/mL] | In vitro neutralization IC50; virus A/HongKong/1968 (H3N2); mAb as IgG [4] [µg/mL] | In vitro neutralization IC50; […] mAb as IgG [5] [µg/mL] | In vitro neutralization IC50; […] mAb as IgG [6] [µg/mL] | stoichiometry N [7]
1G01 Fab | 20.1 | 0.147 | 34.4 | 0.023 | > 50 |  | 
FNI9 Fab | 0.283 | 0.147 | 0.161 | 0.056 | 0.162 |  | 
FNI17 Fab | 0.06 | 0.056 |  | 0.104 | > 50 | 0.017 | 
FNI19 Fab | 0.057 | 0.094 | 0.15 | 0.083 | 0.916 | 0.026 | 
Recombinant neuraminidase from B/Massachusetts/02/2012 (Yamagata) (enzyme) |  |  |  |  |  |  | 4
